{"source": "PubChem BioAssay AID624099 (ICCB-Longwood, 2012)", "test": "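Host factors E2 relies on to silence an HPV18 LCR reporter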 (primary screen)", "system": "human C33A cervical carcinoma cells (HPV-negative) stably expressing BPV1 E2 and an HPV18 LCR luciferase reporter", "reagent": "siRNA pool against human genes, 40 nM", "duration": "72 h", "detection": "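Per-well luciferase luminescence, z-scored on each plate against the plate mean and SD with control wells left out, then averaged across three replicate plates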", "reading the numbers": "mean z-score and z-score: higher = stronger reporter signal, weaker E2 silencing", "active means": "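Hit if mean z-score reaches 2 and two or more of three replicate z-scores also reach 2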", "note": "The deposit covers about 21,000 reagents; this is a random part of them. 497 of them (2.4%) count as active. 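Higher z means weaker E2 silencing; only reporter increases were scored, and knock-downs that hurt cell survival may mask genuine repressor factors.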"}
{"Gene":"IGSF23 (GeneID 147710)","mean z-score":-0.44,"z-score, replicate A":-0.85,"z-score, replicate B":-0.31,"z-score, replicate C":-0.15,"Outcome":"inactive"}
{"Gene":"NFKB2 (GeneID 4791)","mean z-score":-0.29,"z-score, replicate A":-0.35,"z-score, replicate B":-0.45,"z-score, replicate C":-0.06,"Outcome":"inactive"}
{"Gene":"PPIAP35 (GeneID 128192)","mean z-score":-1.64,"z-score, replicate A":-1.34,"z-score, replicate B":-1.81,"z-score, replicate C":-1.75,"Outcome":"inactive"}
{"Gene":"LOC401528 (retired record) (GeneID 401528)","mean z-score":1.13,"z-score, replicate A":1.47,"z-score, replicate B":0.75,"z-score, replicate C":1.17,"Outcome":"inactive"}
{"Gene":"CAMTA2 (GeneID 23125)","mean z-score":-1.58,"z-score, replicate A":-1.62,"z-score, replicate B":-1.63,"z-score, replicate C":-1.49,"Outcome":"inactive"}
{"Gene":"C2CD2L (GeneID 9854)","mean z-score":-0.77,"z-score, replicate A":-0.73,"z-score, replicate B":-0.67,"z-score, replicate C":-0.91,"Outcome":"inactive"}
{"Gene":"ZNF322 (GeneID 79692)","mean z-score":-0.25,"z-score, replicate A":-0.47,"z-score, replicate B":-0.33,"z-score, replicate C":0.06,"Outcome":"inactive"}
{"Gene":"STMN4 (GeneID 81551)","mean z-score":0.68,"z-score, replicate A":1.08,"z-score, replicate B":0.97,"z-score, replicate C":-0.01,"Outcome":"inactive"}
{"Gene":"PEF1 (GeneID 553115)","mean z-score":0.42,"z-score, replicate A":0.57,"z-score, replicate B":0.2,"z-score, replicate C":0.49,"Outcome":"inactive"}
{"Gene":"TMEM135 (GeneID 65084)","mean z-score":-1.07,"z-score, replicate A":-0.83,"z-score, replicate B":-1.21,"z-score, replicate C":-1.16,"Outcome":"inactive"}
{"Gene":"IGFL1 (GeneID 374918)","mean z-score":0.12,"z-score, replicate A":-0.21,"z-score, replicate B":0.54,"z-score, replicate C":0.03,"Outcome":"inactive"}
{"Gene":"UBALD2 (GeneID 283991)","mean z-score":-0.28,"z-score, replicate A":-0.27,"z-score, replicate B":-0.02,"z-score, replicate C":-0.57,"Outcome":"inactive"}
